The values that follow come from PubChem BioAssay AID488895 (Broad Institute, 2010).

The list shows a part of the results, in another mix than the full data. Some salts and complexes are drawn in separate pieces, as the source files them; their charges need not balance. Active and inactive are the calls of the source.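 How the source made its calls: active means mean replicate inhibition at least 50% and at least half of replicates individually reaching 50%; inconclusive means only one of the two criteria met; inactive means neither criterion met.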

The assay in a line: blockers of twin-arginine translocation in E. coli – MC4100, TorA-mCherry reporter, fluorescence, single point, primary screen (AID 488895).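 Further: exported cargo escapes ClpAP degradation while cytoplasmic cargo is degraded and loses fluorescence; 0% = median of neutral control wells and 100% = median of NaSCN control wells.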 Conditions: E. coli MC4100 TorA-mCherry Tat export, at 10 µM, hits give high values.
Regarding `O=C(O)c1cccc(Nc2c([N+](=O)[O-])cc([N+](=O)[O-])cc2[N+](=O)[O-])c1`, the inhibition is inactive: 3.74%.

On to `CC1=NCCc2c1[nH]c1ccccc21.O=[N+]([O-])c1cc([N+](=O)[O-])c(O)c([N+](=O)[O-])c1`, for which the inhibition is inactive: -12.4%. In the case of `CCOC(=O)c1ccc(NP(C)(=O)Oc2cc(C)cc(C)c2)cc1` (centres undefined), the inhibition was inactive: 2.91%. As to `Cc1cc(C)cc(OP(C)(=O)Nc2ccc(C)cc2C)c1` (centres undefined), the inhibition was inactive: -5.34%. The result for `COc1ccccc1OP(C)(=O)Nc1cccc(Br)c1` (centres undefined) reads inactive: -4.97%.

As for `Cc1ccc(C)c(NP(C)(=O)Oc2ccccc2)c1` (centres undefined), the inhibition was inactive: 2.61%.

Take `Cc1cc(C)cc(OP(C)(=O)Nc2ccccn2)c1` (centres undefined): the inhibition was inactive: 2.15%.

Regarding `CP(=O)(Nc1cccc(Br)c1)Oc1ccccc1` (centres undefined), the inhibition is inactive: 5.23%. Take `O=[N+]([O-])c1cc([N+](=O)[O-])c(-n2nnc3ccccc32)c([N+](=O)[O-])c1`: the inhibition was inactive: -0.114%. The result for `Cc1nc2ccc3ccccc3c2s1.O=[N+]([O-])c1cc([N+](=O)[O-])c(O)c([N+](=O)[O-])c1` reads inactive: -3.27%; that for `O=[N+]([O-])c1cc([N+](=O)[O-])c(-c2cnn(-c3ccccc3)c2)c([N+](=O)[O-])c1`, inactive: -2.51%; that for `CCOC(=O)C(CC)C1=NC(C)(C)Cc2ccccc21.O=[N+]([O-])c1cc([N+](=O)[O-])c(O)c([N+](=O)[O-])c1` (centres undefined), inactive: 1.33%. `CC1=C2N=C(C=C3N=C(C(C)=C4[N-][C@@](C)([C@@H]5N=C1[C@](C)(CCC(=O)NC[C@@H](C)OP(=O)([O-])O[C@H]1[C@@H](O)[C@@H](n6cnc7cc(C)c(C)cc76)O[C@@H]1CO)[C@H]5CC(N)=O)[C@@](C)(CC(N)=O)[C@@H]4CCC(N)=O)[C@@](C)(CC(N)=O)[C@@H]3CCC(N)=O)C(C)(C)[C@@H]2CCC(N)=O.[C-]#N.[Co+3]`: the inhibition is inactive: 10.4%.

Regarding `O=[N+]([O-])c1cc([N+](=O)[O-])c(Nc2nnnn2CCO)c([N+](=O)[O-])c1`, the inhibition was inactive: -2.82%. With `CCCOc1ccc(NP(C)(=O)Oc2ccc(Cl)cc2)cc1` (centres undefined), the inhibition was inactive: 0.615%. The result for `CP(=O)(Nc1ccc(SC(F)(F)F)cc1)Oc1ccccc1` (centres undefined) reads inactive: 5.73%; that for `COc1ccccc1OP(C)(=O)Nc1c(C)cccc1C` (centres undefined), inactive: 6.33%.

On to `CN1CCCCC1COC(=O)C1(O)c2ccccc2CCc2ccccc21` (centres undefined), for which the inhibition was inactive: 8.56%. The result for `CP(=O)(Nc1ccccc1Br)Oc1ccccc1` (centres undefined) reads inactive: 2.35%; that for `COc1ccccc1OP(C)(=O)Nc1ccccc1` (centres undefined), inactive: 0.618%; that for `CP(=S)(Nn1cnnc1)Oc1ccccc1` (centres undefined), inactive: -2.81%.

Turning to `Cc1cc(C)cc(OP(C)(=O)Nc2ccc(SC(F)(F)F)cc2)c1` (centres undefined), the inhibition is inactive: 12.7%. `CP(=O)(NC(=O)Nc1ccccc1)Oc1ccccc1` (centres undefined): the inhibition is inactive: -1.49%. In the case of `CCc1ccc(OP(C)(=O)N2CCN(c3ccc([N+](=O)[O-])cc3)CC2)cc1` (centres undefined) it was inactive: 2.38%. In the case of `CP(=O)(Oc1ccccc1)OC(c1ccccc1)C(F)(F)F` (centres undefined) it was inactive: 9.48%; in that of `Cc1cccc(C)c1OP(C)(=O)Nc1ccc(SC(F)(F)F)cc1` (centres undefined), inactive: 0.61%. In the case of `CP(=O)(Nc1ccccn1)Oc1ccc(Cl)cc1` (centres undefined) it was inactive: -5.01%; in that of `CCOC(=O)c1ccc(NP(C)(=O)Oc2ccc(OC)cc2)cc1` (centres undefined), inactive: -2.07%. As for `CCOP(C)(=S)SCC(=O)NC(C)C(=O)O` (centres undefined), the inhibition was inactive: -6.17%. Turning to `CCN(CC)CCCOC(=O)C(O)(c1ccccc1)c1ccccc1`, the inhibition is inactive: 3.64%. Consider `O=[N+]([O-])c1ccc2c(c1)C=Nc1ccccc1O2`, for which the inhibition was inactive: 16.9%. On to `Cc1cccc(C)c1OP(C)(N)=O` (centres undefined), for which the inhibition is inactive: -3.93%. In the case of `CC(C)(C)c1ccc(OP(C)(=O)Nc2ccc(SC(F)(F)F)cc2)cc1` (centres undefined) it was inactive: 9.2%; in that of `O=[N+]([O-])c1cc([N+](=O)[O-])c(Nc2cccnc2)c([N+](=O)[O-])c1`, inactive: 3.1%; in that of `Cc1cc(C)cc(OP(C)(N)=O)c1` (centres undefined), inactive: -3.22%. In the case of `COc1ccc(OP(C)(=O)Nc2cccc(F)c2)cc1` (centres undefined) it was inactive: -1.72%; in that of `COc1ccccc1OP(C)(=O)Nc1cc(Cl)ccc1C` (centres undefined), inactive: 3.45%.

For `Cc1ccc(NP(C)(=O)Oc2ccccc2)c(C)c1` (centres undefined), the inhibition is inactive: -5.57%. The result for `COc1ccccc1OP(C)(=O)Nc1ccc(C)cc1` (centres undefined) reads inactive: -3.38%; that for `CCOC(=O)c1ccc(NP(C)(=O)Oc2ccccc2)cc1` (centres undefined), inactive: -4.92%.

Regarding `COc1ccccc1OP(C)(=O)Nc1ccc(C)c(C)c1` (centres undefined), the inhibition is inactive: 2.49%.

With `COc1ccc(OP(C)(=O)Nc2ccccc2Br)cc1` (centres undefined), the inhibition is inactive: -3.73%. In the case of `Cc1cc(C)cc(OP(C)(=O)Nc2cccc(C(F)(F)F)c2)c1` (centres undefined) it was inactive: 23.1%; in that of `O=C1C(O)=C([N+](=O)[O-])C(=O)C(O)=C1[N+](=O)[O-]`, inactive: -4.24%. As to `CP(=O)(Nc1ccc(Cl)cc1Cl)Oc1ccccc1` (centres undefined), the inhibition is inactive: 2.11%.

Turning to `CP(=O)(OCCOc1ccccc1)OCCOc1ccccc1`, the inhibition is inactive: 6.64%. Regarding `COc1ccc(OP(C)(=O)Nc2ccccn2)cc1` (centres undefined), the inhibition is inactive: 13.5%. In the case of `CN(C)CCOC(=O)C(O)(c1ccccc1)C1CCCC1` (centres undefined) it was inactive: -3.22%; in that of `COc1ccccc1OP(C)(=O)Nc1ccc(Br)cc1` (centres undefined), inactive: 2.15%.

On to `COc1ccccc1OP(C)(=O)Nc1ccc(C)cc1C` (centres undefined), for which the inhibition was inactive: -5.24%. In the case of `CP(=O)(Nc1ccccn1)Oc1ccccc1` (centres undefined) it was inactive: 4.92%; in that of `CCc1ccc(OP(C)(=O)O)cc1`, inactive: -8.34%; in that of `Cc1c(NP(C)(=O)Oc2ccc(C(C)C)cc2)c(=O)n(-c2ccccc2)n1C` (centres undefined), inactive: -7.16%. The result for `O=[N+]([O-])c1cc([N+](=O)[O-])c(Nc2ccccn2)c([N+](=O)[O-])c1` reads inactive: -5.42%; that for `O=C(OCCCN1CCCC1)C(O)(c1ccccc1)C1CCCCC1` (centres undefined), inactive: 3.78%; that for `COc1ccccc1OP(C)(=O)Nc1c(C)n(C)n(-c2ccccc2)c1=O` (centres undefined), inactive: 4%. The result for `CCc1ccc(OP(C)(=O)Nc2cccnc2)cc1` (centres undefined) reads inactive: 12.1%; that for `CP(=O)(Oc1ccccc1)N1CCOC1=O` (centres undefined), inactive: -2.54%.

With `COc1ccc(OP(C)(=O)Nc2ccc(Br)cc2)cc1` (centres undefined), the inhibition was inactive: -3.03%. The result for `CCN(CC)CC(O)COC(=O)C(O)(c1ccccc1)C1CCCCC1` (centres undefined) reads inactive: 0.399%. The result for `CN(C)C(=O)c1c([N+](=O)[O-])cc([N+](=O)[O-])cc1[N+](=O)[O-]` reads inactive: -3.53%; that for `COc1ccccc1OP(C)(=O)Nc1ccccc1Br` (centres undefined), inactive: -1.48%. For `CC(C)(C)c1ccc(OP(C)(=O)O)cc1`, the inhibition is inactive: -7.28%. In the case of `CP(=O)(Nc1ccc(Cl)cc1)Oc1ccc(F)cc1` (centres undefined) it was inactive: 3.4%. The result for `CCOC(=O)c1ccc(NP(C)(=O)Oc2ccc(Cl)cc2)cc1` (centres undefined) reads inactive: 4.14%; that for `CP(=O)(OC12CC3CC(CC(C3)C1)C2)OC12CC3CC(CC(C3)C1)C2`, inactive: -12.9%. In the case of `CN(C)CCOC(=O)C(O)(c1ccccc1)C1CCCCC1` (centres undefined) it was inactive: 3.57%; in that of `COc1ccc(NP(C)(=O)Oc2ccccc2OC)cc1` (centres undefined), inactive: -0.419%; in that of `COc1ccc(OP(C)(=O)Nc2cccc(Br)c2)cc1` (centres undefined), inactive: -7.46%.

For the molecule `Cc1c(C(c2ccc3c(c2)OCO3)c2c(C)n(C)n(-c3ccccc3)c2=O)c(=O)n(-c2ccccc2)n1C.O=[N+]([O-])c1cc([N+](=O)[O-])c(O)c([N+](=O)[O-])c1`, the inhibition was inactive: 7.22%. Consider `O=[N+]([O-])c1ccc(OP2(=O)COCCO2)cc1` (centres undefined), for which the inhibition is inactive: -7.45%. In the case of `O=[N+]([O-])c1cc([N+](=O)[O-])c(NCC2CCS(=O)(=O)C2)c([N+](=O)[O-])c1` (centres undefined) it was inactive: -5.38%; in that of `Cc1cc(-c2cccc3ccccc23)c(C)cn1.O=[N+]([O-])c1cc([N+](=O)[O-])c(O)c([N+](=O)[O-])c1`, inactive: -5.28%; in that of `CCOP(C)(=S)SCC(=O)NC(C)(CC)C(=O)O` (centres undefined), inactive: -14.4%. For `CP(=O)(Nc1ccc(SC(F)(F)F)cc1)Oc1ccc(F)cc1` (centres undefined), the inhibition is inactive: 15%. As for `Cc1ccccc1NP(C)(=O)Nc1ccccc1C`, the inhibition was inactive: -2.13%. In the case of `CP(=O)(Nc1ccc2c(c1)OCCO2)Oc1ccccc1` (centres undefined) it was inactive: -5.57%; in that of `CP(=O)(Nc1ccccc1F)Oc1ccccc1` (centres undefined), inactive: 4.26%.

Regarding `CC(C)c1ccc(OP(C)(=O)Nc2ccc(SC(F)(F)F)cc2)cc1` (centres undefined), the inhibition is inactive: 2.35%. Take `COc1ccc2c(c1O)-c1c(O)c(OC)cc3c1[C@H](C2)[N+](C)(C)CC3.O=[N+]([O-])c1cc([N+](=O)[O-])c([O-])c([N+](=O)[O-])c1[O-]`: the inhibition is inactive: -4.89%.

As for `O=C(OC1CN2CCC1CC2)c1ccc([N+](=O)[O-])cc1` (centres undefined), the inhibition was inactive: 0.205%. In the case of `O=C(OCCN1CCN(CCOCc2ccccc2)CC1)C(O)(c1ccccc1)c1ccccc1`, the inhibition was inactive: 2.1%. In the case of `CCOC(=O)c1ccc(NP(C)(=O)Oc2ccc(F)cc2)cc1` (centres undefined) it was inactive: -0.399%. For the molecule `COc1ccc(OP(C)(=O)Nc2ccc(SC(F)(F)F)cc2)cc1` (centres undefined), the inhibition was inactive: 5.51%. With `CP(=O)(Nc1ccccc1)Oc1ccc(F)cc1` (centres undefined), the inhibition is inactive: -0.141%. With `O=[N+]([O-])c1cc([N+](=O)[O-])c(OC2CCCCC2O)c([N+](=O)[O-])c1` (centres undefined), the inhibition is inactive: -6.22%.

Consider `CCCCCOc1ccc(NP(C)(=O)Oc2ccc(Cl)cc2Cl)cc1` (centres undefined), for which the inhibition is inactive: 4.66%. Take `Cc1c([N+](=O)[O-])cc([N+](=O)[O-])c(Br)c1[N+](=O)[O-]`: the inhibition is inactive: 0.45%.

As for `CCN(CC)CCCOC(=O)C(O)(c1ccccc1)C1CCCCC1` (centres undefined), the inhibition is inactive: -1.61%.
